The test system of this test is HEK 293 cells. Briefly: toxicity assay on HEK 293 cells (Alamar Blue). The note with it: read-out: HEK 293 EC50.

Like-named read-outs stand apart in the source and are kept apart here.

Results on one molecule are retold here after PMC12156181, “Antitrypanosomal and Antileishmanial Activities of Tacca leontopetaloides Tubers and Zanthoxylum zanthoxyloides Stem Bark” (Molecules, 2025).

For orientation: EC50 means the concentration giving half of the maximal effect.

Regarding `O=[As]c1ccccc1` (centres unmarked), the EC50 is 170 nM (a = EC50 of control for 1, 3, 4) and 48 nM (b = EC50 of control for 5, 6, 7).
